Percent effect of library compounds

Mtb glucose medium: 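Phenotypic screen: M. tuberculosis growth, glucose 7H9 medium, 3 days; the read-out is not stated. Tested at 500 µM. Higher reads as more growth inhibition (inferred: compounds with an IC50 in retests scored well above the rest). Size under these conditions: about 18,000 compounds, about 1,400 of them at 50% or above in at least one test.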
Mtb cholesterol medium: 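Growth of Mycobacterium tuberculosis over 4 days (cholesterol / DPPC medium with tyloxapol); the read-out is not stated. Tested at 500 µM. The record gives no direction; compounds that gave an IC50 in retests scored well above the rest, so higher reads as more growth inhibition. About 18,000 compounds were tested under these conditions; 5% (about 900) showed 50% or more at least once.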

Each number is a percent effect as filed.
The record does not define 0% and 100%; most values in the screen are far below 50% and negative numbers occur (in some assays of this library far below -100).
This is part of a subset picked to be rich in strong results.
A dash means the value is not listed here; it may have been measured.

| # | Compound | Mtb glucose medium | Mtb cholesterol medium |
|---|---|---|---|
| 1 | `CCCN(CCC)C(=O)CN1CCCN(C(C)=O)CC1` | 4.551 | - |
| 2 | `CCOc1ccc(Cn2cccc(C)c2=O)nc1` | 35.13 | 10.86 |
| 3 | `Cc1c(Cl)cccc1OCC(=O)NC(C(N)=O)C(C)C` (centres unmarked) | - | 18.29 |
| 4 | `CNC(=O)C1CCCN1Cc1ncc(C(C)(C)C)o1` (centres unmarked) | 41.36 | 21.4 |
| 5 | `CC(NC(=O)NCCn1ccnc1)c1ccccn1` (centres unmarked) | - | -3.412 |
| 6 | `COCCN(C)CCNC(=O)c1ccc(C)c(OC)c1` | 37.63 | 25.99 |
| 7 | `CC(C)n1cc(Br)cc1C(=O)NC1=NCCS1` | 68.02 | 71.15 |
| 8 | `CC(C)(N)CN1CCCN(c2ccc(F)cc2)CC1` | 72.65 | 66.46 |
| 9 | `COCC(C)NC(=O)N(C)Cc1c(C)noc1C` (centres unmarked) | - | 3.785 |
| 10 | `CC1Oc2ccc(Cl)cc2NC1=O` (centres unmarked) | 4.478 | - |
| 11 | `CCC(NC(=O)COc1cccnc1)c1ccnn1C` (centres unmarked) | - | -11.82 |
| 12 | `Cc1cc(F)cc(S(=O)(=O)NCCN)c1` | 22.94 | - |
| 13 | `COCC1CCN(C(=O)Nc2ccc(F)c(OC)c2)C1` (centres unmarked) | - | 16.56 |
| 14 | `CNCc1cn2c(n1)CCCC2` | -3.843 | - |
| 15 | `[H][C@](N)(CO)c1ccccc1` | 2.698 | - |
| 16 | `Cc1nc(COc2ccc(C(=O)OCC#N)cc2)no1` | 63.98 | 76.75 |
| 17 | `CC1(C)CCCN1C(=O)NCCCNC(=O)C1CCC1` | - | -2.059 |
| 18 | `COc1cc(C)c(C(C)N)cc1OC` (centres unmarked) | - | 5.515 |
| 19 | `CC(C)COCC(O)Cn1nnc(-c2ccco2)n1` (centres unmarked) | 51.54 | - |
| 20 | `NCc1ccnc(NC2CC2)c1` | 11.17 | - |
| 21 | `O=C(CSc1nc[nH]n1)NCCCc1ccccc1` | 26.86 | - |
| 22 | `CNC(C(N)=O)c1cccc(Br)c1` (centres unmarked) | - | 0.2529 |
| 23 | `NC(=O)CN1CCN(CCOc2ccc(Cl)cc2)CC1` | 25.46 | - |
| 24 | `NC1CCCOc2c(Cl)cccc21` (centres unmarked) | 24.65 | - |
| 25 | `Cc1cc(NC(=O)CNC(C)c2ccncc2)n(C)n1` (centres unmarked) | -5.212 | - |
| 26 | `Cn1cc(CCCNC(=O)COc2cccnc2)cn1` | - | 9.683 |
| 27 | `CCOc1ccccc1C(=O)N1CCCN(C)CC1` | 19.95 | - |
| 28 | `COc1cccc(Nc2nccc(=O)[nH]2)c1` | 3.264 | -4.619 |
| 29 | `CN1CCC(Nc2ccc(Br)cn2)CC1` | 36.52 | - |
| 30 | `NCCc1noc2ccccc12` | 5.4 | 5.878 |
| 31 | `CC(C)NCC(=O)NC(N)=O` | - | -9.183 |
| 32 | `CSc1ncccc1C(=O)NCC(=O)NC1CC1` | - | -8.828 |
| 33 | `N[C@@H]1C[C@@H]2CC[C@H]1O2` | - | 2.644 |
| 34 | `CCC(=O)NCC(C)(CC)NC(=O)CC` (centres unmarked) | 1.327 | - |
| 35 | `CN(Cc1ccccc1N1CCOCC1)S(N)(=O)=O` | 19.84 | - |
| 36 | `Cc1cccc(CS(=O)(=O)NCC2(CO)CC2)c1` | - | -11.69 |
| 37 | `O=C(C1CCCCO1)N1CCN(c2ccncc2)CC1` (centres unmarked) | 11.01 | - |
| 38 | `CNC(C)c1ccc(-n2cncn2)cc1` (centres unmarked) | - | 7.431 |
| 39 | `NC(=O)COc1ccc(Br)cc1CNCC1CCCO1` (centres unmarked) | - | 12.06 |
| 40 | `Cn1ccnc1CN1CCC2(CC(=O)NC2=O)C1` (centres unmarked) | 6.699 | - |
| 41 | `Cn1nc2n(c1=O)C(=O)N(c1ccccc1)C2` | - | -5.387 |
| 42 | `COc1ccccc1CC#N` | 1.219 | - |
| 43 | `COc1ccc(C2=NN=C(NC3CC3)SC2)cc1OC` | 25.49 | 6.802 |
| 44 | `O=C(Cc1ccc(O)c(Cl)c1)NC[C@@H]1C[C@H](F)CN1` | - | -6.004 |
| 45 | `CC(N)c1ccc(OCC(=O)NC2CC2)cc1` (centres unmarked) | 10.03 | - |
| 46 | `C(Cc1noc(C2CNC2)n1)OCC1CC1` | 104.1 | 107.5 |
| 47 | `Cc1cc(CC(C)NC(=O)CCn2nnnc2C)[nH]n1` (centres unmarked) | 6.723 | - |
| 48 | `CCOc1ccc(C(=O)n2cnnc2N)cc1` | - | 9.363 |
| 49 | `CC(=O)c1ccc(C(=O)N[C@@H]2CS(=O)(=O)C[C@H]2O)s1` | 5.167 | - |
| 50 | `CC(C)Oc1cc(N2CCN(CCO)CC2)nc(N)n1` | - | 11.6 |
| 51 | `CCCn1cc(CNC(=O)c2ccc(=O)[nH]c2)cn1` | -7.975 | - |
| 52 | `COc1ccc(C(NCCO)C2CCOCC2)cc1` (centres unmarked) | 10.13 | - |
| 53 | `CC(C)C(C)(C#N)NC(=O)CN1CCCCC1` (centres unmarked) | 3.343 | - |
| 54 | `Cn1cc(Br)c(CN2C(=O)c3ccccc3C2=O)n1` | 3.114 | - |
| 55 | `CSCCC(CO)NC(=O)c1occc1C(C)C` (centres unmarked) | 60.31 | 63.62 |
| 56 | `CCC[C@H]1CN(c2noc(C)n2)C[C@@H]1N` | - | -22.8 |
| 57 | `CC(C)(C)NC(=O)N1CCNCC1` | 5.265 | - |
| 58 | `COC(=O)CNc1ccc(Cl)cc1C(N)=O` | 32.32 | - |
| 59 | `CN1CC(CCN)C1` | -15.54 | - |

Some entries from above, unchanged:

{"compound": "COc1ccc(C(NCCO)C2CCOCC2)cc1", "stereo": "centres unmarked", "Mtb glucose medium": 10.13}
{"compound": "Cn1cc(Br)c(CN2C(=O)c3ccccc3C2=O)n1", "Mtb glucose medium": 3.114}
{"compound": "Cc1cc(F)cc(S(=O)(=O)NCCN)c1", "Mtb glucose medium": 22.94}
{"compound": "CN(Cc1ccccc1N1CCOCC1)S(N)(=O)=O", "Mtb glucose medium": 19.84}

The values are deposited in ChEMBL (CHEMBL3988442, “University of Dundee, Small-Polar-MMV Screening Library” (2021)).